Reference: the supplement of paper PMC3578754
Fold change is the IC50 on the isolate divided by the IC50 on a reference virus; 1 = unchanged, higher = more resistant. Changes are given against the subtype B consensus. No active / inactive call. The values were gathered from many studies (numbered anew) with different assays, which the source does not name. Most viruses are clinical isolates; some are laboratory strains or clones with known resistance changes. Isolates with mixed residues are left out; stretches that were not sequenced show no change. Round top values that many isolates share are read here as limits; other very high values and 0.1 may be limits too. For some assays here: The protease changes I3V and N37S, insertions and deletions cannot be read from the source.

Key:
saquinavir = compound: CC(C)(C)NC(=O)[C@@H]1C[C@@H]2CCCC[C@@H]2CN1C[C@@H](O)[C@H](Cc1ccccc1)NC(=O)[C@H](CC(N)=O)NC(=O)c1ccc2ccccc2n1 [saquinavir]; experiment: fold change of IC50 against reference virus; higher = more resistant; Cell-culture drug susceptibility tests of virus bearing the protease of each isolate, gathered from many studies.
atazanavir = compound: COC(=O)N[C@H](C(=O)N[C@@H](Cc1ccccc1)[C@@H](O)CN(Cc1ccc(-c2ccccn2)cc1)NC(=O)[C@@H](NC(=O)OC)C(C)(C)C)C(C)(C)C [atazanavir]; experiment: as above
nelfinavir = compound: Cc1c(O)cccc1C(=O)N[C@@H](CSc1ccccc1)[C@H](O)CN1C[C@H]2CCCC[C@H]2C[C@H]1C(=O)NC(C)(C)C [nelfinavir]; experiment: as above
indinavir = compound: CC(C)(C)NC(=O)[C@@H]1CN(Cc2cccnc2)CCN1C[C@@H](O)C[C@@H](Cc1ccccc1)C(=O)N[C@H]1c2ccccc2C[C@H]1O [indinavir]; experiment: as above
zidovudine = compound: Cc1cn([C@H]2C[C@H](N=[N+]=[N-])[C@@H](CO)O2)c(=O)[nH]c1=O [zidovudine]; experiment: fold change of IC50 against reference virus; higher = more resistant
Method: (§1)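 Cell-culture drug susceptibility tests of virus bearing the reverse transcriptase of each isolate, gathered from many studies.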

nevirapine = compound: Cc1ccnc2c1NC(=O)c1cccnc1N2C1CC1 [nevirapine]; experiment: as above
Method: as §1

didanosine = compound: O=c1[nH]cnc2c1ncn2[C@H]1CC[C@@H](CO)O1 [didanosine]; experiment: as above
Method: as §1

ritonavir = compound: CC(C)c1nc(CN(C)C(=O)N[C@H](C(=O)N[C@@H](Cc2ccccc2)C[C@H](O)[C@H](Cc2ccccc2)NC(=O)OCc2cncs2)C(C)C)cs1 [ritonavir]; experiment: fold change of IC50 against reference virus; higher = more resistant; Cell-culture drug susceptibility tests of virus bearing the protease of each isolate, gathered from many studies.

| Test System | fold change of IC50 against reference virus (atazanavir) | fold change of IC50 against reference virus (zidovudine) | fold change of IC50 against reference virus (nevirapine) | fold change of IC50 against reference virus (didanosine) | other results |
| --- | --- | --- | --- | --- | --- |
| HIV-1 isolate 1028 (protease changes: L10I E35D M36V K43T M46L I54V D60E I62V L63P A71V V82A I84V L90M, study 108) | 80 | – | – | – | fold change of IC50 against reference virus (saquinavir): 43; fold change of IC50 against reference virus (nelfinavir): 47; fold change of IC50 against reference virus (indinavir): 63 |
| HIV-1 isolate 438 (protease changes: R57G, study 108) | 1 | – | – | – | fold change of IC50 against reference virus (saquinavir): 1; fold change of IC50 against reference virus (nelfinavir): 1; fold change of IC50 against reference virus (indinavir): 1 |
| HIV-1 isolate 20 (reverse transcriptase changes: V35T E36A T39E S48T V60I K122E D123G I135T S162A K173A D177E T200A Q207E R211K, study 99) | – | 1 | 1 | 1.1 | – |
| HIV-1 isolate 701 (reverse transcriptase changes: D67N K70R K122E F214L T215Y K219Q A272P K277R M357T A376T A400T N447S D460N S468T S519N, study 13) | – | 150 | 1 | 1.4 | – |
| HIV-1 isolate 1041 (reverse transcriptase changes: V35T E36A T39E S48T K122E D123G S162A K173A D177E T200A Q207E V245Q, study 99) | – | 1 | 1 | 1.1 | – |
| HIV-1 isolate 947 (reverse transcriptase changes: V35T T39E S48T K122E K173A D177E T200A R211K V245R, study 99) | – | 2 | 1 | 0.9 | – |
| HIV-1 isolate 1539 (reverse transcriptase changes: M41L L74V K122E Y181C F214L T215Y A272P K277R M357T A376T A400T N447S D460N S468T S519N, study 17) | – | 7 | 110 | 4.5 | – |
| HIV-1 isolate 684 (reverse transcriptase changes: D67N K70R K122E Y181C F214L T215Y K219Q A272P K277R M357T A376T A400T N447S D460N S468T S519N, study 13) | – | 5 | 112 | 1 | – |
| HIV-1 isolate 583 (reverse transcriptase changes: L74V K122E F214L A272P K277R M357T A376T A400T N447S D460N S468T S519N, study 13) | – | 2 | 1 | 8 | – |
| HIV-1 isolate 8 (protease changes: L10Y I50L L63P A71V N88S, study 43) | 93 | – | – | – | – |
| HIV-1 isolate 492 (protease changes: N88S, study 43) | 4 | – | – | – | – |
| HIV-1 isolate 950 (protease changes: M46I N88S, study 43) | 6 | – | – | – | – |
| HIV-1 isolate 774 (reverse transcriptase changes: M41L L74V K122E F214L T215Y A272P K277R M357T A376T A400T N447S D460N S468T S519N, study 17) | – | 33 | 1 | 8.9 | – |
| HIV-1 isolate 1017 (protease changes: K20I M36I M46I Q61E I62V L63P A71V I72M V82F L90M I93L, study 65) | 15 | – | – | – | fold change of IC50 against reference virus (saquinavir): 1.5; fold change of IC50 against reference virus (nelfinavir): 56; fold change of IC50 against reference virus (ritonavir): 100 |
| HIV-1 isolate 1480 (reverse transcriptase changes: M41L L74V K122E F214L T215Y A272P K277R M357T A376T A400T N447S D460N S468T S519N, study 13) | – | 2 | 1 | 7.1 | – |
| HIV-1 isolate 991 (reverse transcriptase changes: K122E F214L A272P K277R A376T A400T D460N S468T H483Y K512Q S519N, study 72) | – | 1 | 1 | 1 | – |
| HIV-1 isolate 872 (protease changes: V32I L33F M46I A71V I84V N88S, study 43) | 183 | – | – | – | – |

| Test System | fold change of IC50 against reference virus (atazanavir) | fold change of IC50 against reference virus (zidovudine) | fold change of IC50 against reference virus (nevirapine) | fold change of IC50 against reference virus (didanosine) | other results |
| --- | --- | --- | --- | --- | --- |
| HIV-1 isolate 347 (reverse transcriptase changes: M41L K122E Y181C F214L T215Y A272P K277R M357T A376T A400T N447S D460N S468T S519N, study 13) | – | 2 | 200 | 0.4 | – |
| HIV-1 isolate 536 (protease changes: L10Y I50L A71V N88S, study 43) | 36 | – | – | – | fold change of IC50 against reference virus (saquinavir): 1; fold change of IC50 against reference virus (nelfinavir): 1; fold change of IC50 against reference virus (indinavir): 1 |
| HIV-1 isolate 1535 (reverse transcriptase changes: L74V K102Q S162C Y181C T215Y K277R I293V R358K V435I S468P K550G, study 45) | – | 4 | 30 | 8 | – |
| HIV-1 isolate 1618 (protease changes: L10I I13V K14R L19I E35D N37Q R57K L63P V77I, study 101) | 0.9 | – | – | – | fold change of IC50 against reference virus (saquinavir): 0.8; fold change of IC50 against reference virus (nelfinavir): 1.7; fold change of IC50 against reference virus (ritonavir): 1.4 |
| HIV-1 isolate 1308 (protease changes: L10Y I50L A71V N88S, study 43) | 36 | – | – | – | – |
| HIV-1 isolate 633 (protease changes: D30N N37D L63P H69Y V77I N88D I93L, study 15) | 1.3 | – | – | – | fold change of IC50 against reference virus (ritonavir): 0.6; fold change of IC50 against reference virus (indinavir): 1 |
| HIV-1 isolate 1463 (reverse transcriptase changes: V35K T39E S48T V60I T139A K173T D177E I178M G196E T200A Q207E, study 99) | – | 1 | 2 | 1.2 | – |
| HIV-1 isolate 1098 (protease changes: V32I M46I R57G I84V L89M, study 43) | 96 | – | – | – | – |
| HIV-1 isolate 971 (protease changes: L10I G16A R41K G48V I54T Q61H I62V L63Q A71V T74A V77I V82A I93L, study 108) | 33 | – | – | – | fold change of IC50 against reference virus (saquinavir): 63; fold change of IC50 against reference virus (nelfinavir): 22; fold change of IC50 against reference virus (indinavir): 66 |
| HIV-1 isolate 1007 (reverse transcriptase changes: L74V K102Q V106A S162C T215Y K277R I293V R358K V435I S468P K550G, study 45) | – | 2000 | 30 | 8 | – |
| HIV-1 isolate 853 (reverse transcriptase changes: L74V K122E Y181C F214L A272P K277R M357T A376T A400T N447S D460N S468T S519N, study 13) | – | 2 | 80 | 6.4 | – |
| HIV-1 isolate 1064 (reverse transcriptase changes: V75I F77L K102Q F116Y Q151M S162C Y181C K277R I293V R358K V435I S468P K550G, study 128) | – | 200 | 200 | 17 | – |
| HIV-1 isolate 600 (reverse transcriptase changes: L74V K102Q S162C T215Y, study 45) | – | 1 | 1 | 8 | – |
| HIV-1 isolate 630 (protease changes: V32I M46I R57G I84V, study 43) | 6 | – | – | – | – |
| HIV-1 isolate 191 (protease changes: V32I M46I A71V N88S, study 43) | 12 | – | – | – | – |
| HIV-1 isolate 908 (reverse transcriptase changes: K102Q S162C K277R I293V R358K V435I S468P K550G, study 16) | – | 1 | 1 | 1 | – |
| HIV-1 isolate 157 (reverse transcriptase changes: M41L K122E F214L T215Y A272P K277R M357T A376T A400T N447S D460N S468T S519N, study 13) | – | 70 | 1 | 1.1 | – |
